This passage reports cleavage efficiency results from patent US6638509B1, “Toxin conjugates” (Kyowa Hakko Kogyo, Co., Ltd., priority 1995, dated 2003).

In the data set the test system is proline endopeptidase. The following applies: 37° C., 2.5 hours.

“BzlO-PEG-Ala-Pro-Compound (12) [Compound (X-2)]” came in with a cleavage efficiency of 100%.
